We go through six molecules from patent publication EP1222194B1, “7-ACYLAMINO-3-HETEROARYLTHIO-3-CEPHEM CARBOXYLIC ACID ANTIBIOTICS AND PRODRUGS THEREOF” (priority 1999, dated 2001).

SMILES strings stand for the structures.

The series deals with S. aureus ATCC29213. Nature of the series: Human serum binding effect (MIC with and without human serum). Format: cell-based, Staphylococcus aureus. The settings on record: Ratio of MIC value determined with and without human serum added for S. aureus ATCC29213; human serum:MHB 1:1.
Take `NCCSCc1ccncc1SC1=C(C(=O)O)N2C(=O)[C@@H](NC(=O)/C(=N\O)c3nsc(N)n3)[C@H]2SC1` [Cmpd 4, (7R)-7-[(Z)-2-(5-amino-1,2,4-thiadiazol-3-yl)-2-(hydroxyimino)acetamido]-3-[4-(2-aminoethylthiomethyl)pyrid-3-ylthio]-3-cephem-4-carboxylic acid]: the “Human serum binding effect” value is reported as 4.
Turning to `N=C(N)NCCSCc1ncccc1SC1=C(C(=O)O)N2C(=O)[C@@H](NC(=O)/C(=N\O)c3nsc(N)n3)[C@H]2SC1` [Cmpd 2-R, (7R)-7-[(Z)-2-(5-amino-1,2,4-thiadiazol-3-yl)-2-(hydroxyimino)acetamido]-3-[2-(2-guanidinoethylthiomethyl)pyrid-3-ylthio]-3-cephem-4-carboxylic acid], the “Human serum binding effect” value was 2.
Turning to `NCCSCc1ncccc1SC1=C(C(=O)O)N2C(=O)[C@@H](NC(=O)/C(=N\O)c3nsc(N)n3)[C@H]2SC1` [Cmpd 2, (7R)-7-[(Z)-2-(5-amino-1,2,4-thiadiazol-3-yl)-2-(hydroxyimino)acetamido]-3-[2-(2-aminoethylthiomethyl)pyrid-3-ylthio]-3-cephem-4-carboxylic acid], the “Human serum binding effect” value was found to be 2.
To `NCCSCc1ccncc1SC1=C(C(=O)O)N2C(=O)[C@@H](NC(=O)/C(=N\O)c3nc(N)sc3Cl)[C@H]2SC1` [Cmpd 3, (7R)-7-[(Z)-2-(2-amino-5-chlorothiazol-4-yl)-2-(hydroxyimino)acetamido]-3-[4-(2-aminoethylthiomethyl)pyrid-3-ylthio]-3-cephem-4-carboxylic acid] belongs 2.
Under `N=C(N)NCCSCc1ncccc1SC1=C(C(=O)O)N2C(=O)[C@@H](NC(=O)/C(=N\O)c3nc(N)sc3Cl)[C@H]2SC1` [Cmpd 2-S, (7R)-7-[(Z)-2-(2-amino-5-chlorothiazol-4-yl)-2-(hydroxyimino)acetamido]-3-[2-(2-guanidinoethylthiomethyl)pyrid-3-ylthio]-3-cephem-4-carboxylic acid] stands 2; under `NCCSCc1ncccc1SC1=C(C(=O)O)N2C(=O)[C@@H](NC(=O)/C(=N\O)c3nc(N)sc3Cl)[C@H]2SC1` [Cmpd 1, (7R)-7-[(Z)-2-(2-amino-5-chlorothiazol-4-yl)-2-(hydroxyimino)acetamido]-3-[2-(2-aminoethylthiomethyl)pyrid-3-ylthio]-3-cephem-4-carboxylic acid], 2.
